Substrate: N#CC1=C(N)OC2=C(C(=O)CCC2)C1c1cn([C@H]2C[C@@H](O)[C@@H](CO)O2)c(=O)[nH]c1=O
Settings: Orthopoxvirus vaccinia

B1: Thymidine kinase, cytosolic (Homo sapiens), P04183 (protein)
chain: MSCINLPTVLPGSPSKTRGQIQVILGPMFSGKSTELMRRVRRFQIAQYKCLVIKYAKDTRYSSSFCTHDRNTMEALPACLLRDVAQEALGVAVIGIDEGQFFPDIVEFCEAMANAGKTVIVAALDGTFQRKPFGAILNLVPLAESVVKLTAVCMECFREAAYTKRLGTEKEVEVIGGADKYHSVCRLCYFKKASGQPAGPDNKENCPVPGKPGEAVAARKLFAPQQILQCSPAN
  Km: 43 µM
